Results of unrelated studies side by side (data: NIAID ChemDB).

Shared fields: tests in culture; species: HIV-1; read by: cytopathic effect / XTT; endpoint: EC50

ECn: concentration that inhibits the pathogen or its effect by n%. An empty or dashed field is not shown. Lines come from different laboratories, so protocols vary.

{"compound": "COC1(OC)CCCCC2c3cccc(OC(C)=O)c3C21OC(C)=O", "cells": "CEM", "strain": "IIIB", "value": "7.9 µM"}
{"compound": "Cc1cn([C@H]2C[C@H](N=[N+]=[N-])[C@@H](CO)O2)c(=O)[nH]c1=O", "cells": "MT-4", "strain": "IIIB", "value": "0.016 µM"}
{"compound": "Cc1ncc(COP(=O)(O)O)c(C=O)c1O", "cells": "MT-2", "strain": "IIIB", "value": ">100 µg/mL"}
{"compound": "CCc1c([Se]c2cc(C)cc(C)c2)n(COCCO)c(=S)[nH]c1=O", "cells": "CEM + CEM-SS", "strain": "RF", "value": "0.0099 µM"}
{"compound": "CNC(=O)CSP(=O)(NCC(=O)OC)OC[C@@H]1CC[C@H](n2ccc(N)nc2=O)O1", "cells": "MT-4", "value": "1 µM"}
{"compound": "Cc1cccc([Se]c2c(C(C)C)c(=O)[nH]c(=O)n2COCc2ccccc2)c1", "cells": "CEM + CEM-SS", "strain": "RF", "value": "0.011 µM"}
{"compound": "CCc1cc(NCc2nc3c(Cl)ccc(Cl)c3o2)c(=O)[nH]c1C", "cells": "MT-4", "changes": "RT-L100I Y188H", "strain": "22(RT-L100I Y188H)", "value": ">10 µM"}
{"compound": "CC1=C(C(=O)Nc2ccc(Cl)c(C(=O)OC(C)C)c2)SCCO1", "cells": "CEM", "strain": "IIIB", "value": "0.0075 µM"}
{"compound": "CCOCn1c([Se]c2cccc(C)c2)c(C(C)C)c(=O)[nH]c1=O", "cells": "CEM + CEM-SS", "strain": "RF", "value": "0.0081 µM"}
{"compound": "Cc1ccnc2c1NC(=O)c1cccnc1N2C1CC1", "cells": "PBMC", "strain": "WEJO", "value": "0.06 µM"}
{"compound": "CCOCn1c([Se]c2cccc(C)c2)c(C(C)C)c(=O)[nH]c1=S", "cells": "CEM + CEM-SS", "strain": "RF", "value": "0.047 µM"}
{"compound": "Nc1nc2c(ncn2[C@H]2C=C[C@@H](CO)C2)c(=O)[nH]1", "cells": "MT-2", "value": "0.19 µg/mL"}
{"compound": "Nc1nc2c(ncn2COCCO)c(=O)[nH]1", "cells": "MT-4", "value": ">100 µM"}
{"compound": "C/C=C/CSc1cc(NC(=S)c2ccsc2C)ccc1Cl", "cells": "CEM + CEM-SS", "changes": "RT-A98G", "strain": "NL4-3 (RT A98G)", "value": "0.1 µM"}
{"compound": "CCN(CC)CC.CNC(=O)CSP(=O)(O)OC[C@H]1O[C@@H](n2cc(C)c(=O)[nH]c2=O)C[C@@H]1F", "cells": "MT-4", "value": "0.3 µM"}
{"compound": "CCOC(=O)NN(C(=O)OCC)C(=C(C1CCCCC1)N1CCOCC1)N(NC(=O)OCC)C(=O)OCC", "cells": "CEM", "strain": "IIIB", "value": "1.7 µM"}
{"compound": "Nc1nc(Cl)c2ncn([C@H]3C=C[C@@H](CO)C3)c2n1", "cells": "MT-2", "value": "0.4 µg/mL"}
{"compound": "CCc1c(Sc2ccccn2)n(COCc2ccccc2)c(=O)[nH]c1=O", "cells": "CEM", "strain": "IIIB", "value": "0.22 µM"}
{"compound": "Cc1ccccc1CNC(=O)[C@H]1N(C(=O)[C@@H](O)[C@H](Cc2ccc3c(c2)OCO3)NC(=O)c2cccc(O)c2C)CSC1(C)C", "setting": "15% FBS", "cells": "CEM", "strain": "IIIB", "value": "0.0048 µM"}
{"compound": "CCCc1cc(=O)oc2c3c(c4c(c12)OC(C)(C)C=C4)O[C@@H](C)[C@H](C)[C@@H]3O", "cells": "CEM + CEM-SS", "changes": "RT-P236L", "strain": "HEPT-resistant (RT P236L)", "value": "1.1 µM"}
{"compound": "Cc1c(O)cccc1C(=O)N[C@@H](CSc1ccccc1)[C@H](O)CN1C[C@H]2CCCC[C@H]2C[C@H]1C(=O)NC(C)(C)C", "setting": "15% FBS", "cells": "CEM", "strain": "IIIB", "value": "0.019 µM"}
{"compound": "COC(=O)CNP(=O)(NCC(=O)OC)OC[C@H]1O[C@@H](n2cc(C)c(=O)[nH]c2=O)C[C@@H]1OC(C)=O", "cells": "MT-4", "value": ">100 µM"}
{"compound": "Cc1cn([C@H]2C[C@H](N=[N+]=[N-])[C@@H](COC(=O)CNNC(=O)c3ccncc3)O2)c(=O)[nH]c1=O", "cells": "CEM", "value": "<0.064 µM"}
{"compound": "CCc1c(C(=O)c2cc(C)cc(C)c2)n(CC2CC=CC2)c(=O)[nH]c1=O", "setting": "clinical isolate", "cells": "MM + M/M", "strain": "ADA", "value": "0.0003 µM"}
{"compound": "Nc1ccn([C@H]2CC[C@@H](CO)O2)c(=O)n1", "cells": "MT-2", "value": "0.29 µg/mL"}
{"compound": "Cc1ccnc2c1NC(=O)c1cccnc1N2C1CC1", "cells": "CEM + CEM-SS", "changes": "RT-A98G V108I", "strain": "TIBO R82150-resistant (RT A98G V108I)", "value": "0.6 µM"}
{"compound": "S=C(NCCc1ccccn1)Nc1ccc(Br)cn1", "cells": "MT-4", "changes": "RT-L100I Y188H", "strain": "22(RT-L100I Y188H)", "value": "7 µM"}
{"compound": "COc1ccc(C[C@H](NC(=O)c2cccc(O)c2C)[C@H](O)C(=O)N2CSC(C)(C)[C@H]2C(=O)NCc2c(C)cccc2C)cc1", "setting": "50% human serum", "cells": "CEM", "strain": "IIIB", "value": "0.014 µM"}
{"compound": "Cc1ccnc2c1NC(=O)c1cccnc1N2C1CC1", "cells": "MT-4", "changes": "RT-Y181C", "strain": "T3-16(RT-Y181C)", "value": "15.5 µM"}
{"compound": "Cc1cn([C@H]2C[C@H](N=[N+]=[N-])[C@@H](COC(=O)CNC(=O)c3cnccn3)O2)c(=O)[nH]c1=O", "cells": "CEM", "value": ">0.064 µM"}
{"compound": "CCCOc1ccc(C[C@H](NC(=O)c2cccc(O)c2C)[C@H](O)C(=O)N2CSC(C)(C)[C@H]2C(=O)NCc2ccccc2C)cc1", "setting": "15% FBS", "cells": "CEM", "strain": "IIIB", "value": "0.0032 µM"}
{"compound": "CC(C)=CCN1Cc2cc(Cl)cc3[nH]c(=S)n(c23)C[C@@H]1C", "cells": "MT-4", "changes": "RT-L100I", "strain": "118(RT-L100I)", "value": ">10 µM"}
{"compound": "COc1cccc(C[C@H](NC(=O)c2cccc(O)c2C)[C@H](O)C(=O)N2CSC(C)(C)[C@H]2C(=O)NCc2c(C)cccc2C)c1", "setting": "15% FBS", "cells": "CEM", "strain": "IIIB", "value": "0.0024 µM"}
{"compound": "Cc1occc1C(=S)Nc1ccc(Cl)c(/C=N/OC(C)(C)C)c1", "cells": "CEM + CEM-SS", "changes": "RT-Y181C", "strain": "UC781-R (RT-Y181C)", "value": "0.9 µM"}

Repeating the first 5 entries:

compound | setting | cells | changes | strain | value
COC1(OC)CCCCC2c3cccc(OC(C)=O)c3C21OC(C)=O |  | CEM |  | IIIB | 7.9 µM
Cc1cn([C@H]2C[C@H](N=[N+]=[N-])[C@@H](CO)O2)c(=O)[nH]c1=O |  | MT-4 |  | IIIB | 0.016 µM
Cc1ncc(COP(=O)(O)O)c(C=O)c1O |  | MT-2 |  | IIIB | >100 µg/mL
CCc1c([Se]c2cc(C)cc(C)c2)n(COCCO)c(=S)[nH]c1=O |  | CEM + CEM-SS |  | RF | 0.0099 µM
CNC(=O)CSP(=O)(NCC(=O)OC)OC[C@@H]1CC[C@H](n2ccc(N)nc2=O)O1 |  | MT-4 |  |  | 1 µM